Laboratory results: PubChem BioAssay AID1259414 (Drosophila RNAi Screening Center, 2018)
Test: 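Host factors increasing or decreasing Wolbachia levels in cultured fly cells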 (primary screen). Cell system: Drosophila JW18 cells infected with Wolbachia. Reagent: long dsRNA against Drosophila genes, 0.25 µg dsRNA per well of a 384-well plate. Timing: 5 days. Conditions: cells persistently infected with Wolbachia before knock-down; no added drug. Measurement: 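Automated imaging of bacterial rRNA staining divided by host cell count, reported as plate-normalised robust z-score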. Direction: Wolbachia per cell robust z: higher = more Wolbachia per host cell than the plate typical. Hit rule: 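Active if absolute robust z reaches 1.5 in two or more of three replicates, leaving out multi- or no-target dsRNAs, genes unexpressed in JW18 and A1 wells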.
The deposit covers about 24,000 reagents; below is an unselected part of those that have a named target and a result. Over the whole deposit, about 1,210 (5%) got an active call. 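Inactive calls also include excluded dsRNAs with several or no targets, genes unexpressed in JW18, and well A1, regardless of score.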 Unmarked entries are inactive. Reagents against one gene are numbered here. Names joined by + are all predicted targets of the reagent.

For CG14830 + asRNA:CR43470, the entry reads Wolbachia per cell robust z, rep 1 = -2.88; Wolbachia per cell robust z, rep 2 = -2.2; Wolbachia per cell robust z, rep 3 = -1.27.
Depletion of CG3040 resulted in: Wolbachia per cell robust z, rep 1 = -0.354; Wolbachia per cell robust z, rep 2 = 0.223; Wolbachia per cell robust z, rep 3 = 0.191.
With knock-down of asRNA:CR31144 + RpL3, the screen gave Wolbachia per cell robust z, rep 1 = 0.507; Wolbachia per cell robust z, rep 2 = 2.52; Wolbachia per cell robust z, rep 3 = 3.1.
Against CG9436 the deposit lists Wolbachia per cell robust z, rep 1 = 0.276; Wolbachia per cell robust z, rep 2 = -0.576; Wolbachia per cell robust z, rep 3 = 0.674.
After knock-down of rdo #1, the record shows Wolbachia per cell robust z, rep 1 = 1.37; Wolbachia per cell robust z, rep 2 = 0.272; Wolbachia per cell robust z, rep 3 = -2.59.
After knock-down of rdo #2, the screen gave Wolbachia per cell robust z, rep 1 = 0.97; Wolbachia per cell robust z, rep 2 = 1.15; Wolbachia per cell robust z, rep 3 = -0.445.
Silencing of CG33333 came out at: Wolbachia per cell robust z, rep 1 = -1.7; Wolbachia per cell robust z, rep 2 = 0.346; Wolbachia per cell robust z, rep 3 = -0.814.
After knock-down of GATAd the results were Wolbachia per cell robust z, rep 1 = 0.377; Wolbachia per cell robust z, rep 2 = -0.562; Wolbachia per cell robust z, rep 3 = 0.996.
Depletion of CG5681 #1 gave: Wolbachia per cell robust z, rep 1 = 0.711; Wolbachia per cell robust z, rep 2 = 0.8; Wolbachia per cell robust z, rep 3 = 0.497.
CG5681 #2 gave Wolbachia per cell robust z, rep 1 = -0.0158; Wolbachia per cell robust z, rep 2 = 0.428; Wolbachia per cell robust z, rep 3 = 0.871.
Silencing of CG5194 came out at: Wolbachia per cell robust z, rep 1 = 0.212; Wolbachia per cell robust z, rep 2 = -0.99; Wolbachia per cell robust z, rep 3 = -0.261.
Silencing of PGRP-LD + Pmi resulted in: Wolbachia per cell robust z, rep 1 = 1.15; Wolbachia per cell robust z, rep 2 = -0.941; Wolbachia per cell robust z, rep 3 = 0.676.
With knock-down of CG13078, the record shows Wolbachia per cell robust z, rep 1 = 0.191; Wolbachia per cell robust z, rep 2 = -1.44; Wolbachia per cell robust z, rep 3 = 0.0913.
With knock-down of sac #1, the screen gave Wolbachia per cell robust z, rep 1 = -0.119; Wolbachia per cell robust z, rep 2 = 0.138; Wolbachia per cell robust z, rep 3 = -0.623.
sac #2 scored Wolbachia per cell robust z, rep 1 = 0.629; Wolbachia per cell robust z, rep 2 = -0.561; Wolbachia per cell robust z, rep 3 = -0.346.
Against alpha4GT2, the values are Wolbachia per cell robust z, rep 1 = -0.0407; Wolbachia per cell robust z, rep 2 = -0.585; Wolbachia per cell robust z, rep 3 = -0.498.
After knock-down of CG9667 #1, the record shows Wolbachia per cell robust z, rep 1 = 0.191; Wolbachia per cell robust z, rep 2 = -0.56; Wolbachia per cell robust z, rep 3 = -1.9.
After knock-down of CG9667 #2, the screen gave Wolbachia per cell robust z, rep 1 = 1.51; Wolbachia per cell robust z, rep 2 = -0.0456; Wolbachia per cell robust z, rep 3 = 1.35.
CG34277 + CG31542 #1 gave Wolbachia per cell robust z, rep 1 = 1.54; Wolbachia per cell robust z, rep 2 = -0.102; Wolbachia per cell robust z, rep 3 = 1.52.
Against CG34277 + CG31542 #2 the deposit lists Wolbachia per cell robust z, rep 1 = -0.54; Wolbachia per cell robust z, rep 2 = 0.891; Wolbachia per cell robust z, rep 3 = -2.28.
CG13359 #1 gave Wolbachia per cell robust z, rep 1 = -1.43; Wolbachia per cell robust z, rep 2 = -1.37; Wolbachia per cell robust z, rep 3 = 1.4.
CG13359 #2 gave Wolbachia per cell robust z, rep 1 = -0.459; Wolbachia per cell robust z, rep 2 = 0.059; Wolbachia per cell robust z, rep 3 = -3.17.
CG3306 gave Wolbachia per cell robust z, rep 1 = -0.53; Wolbachia per cell robust z, rep 2 = 0.351; Wolbachia per cell robust z, rep 3 = -0.429.
After knock-down of CG4661, the screen gave Wolbachia per cell robust z, rep 1 = 0.518; Wolbachia per cell robust z, rep 2 = 0.153; Wolbachia per cell robust z, rep 3 = 0.427.

An excerpt from above, showing only “Wolbachia per cell robust z, rep 2”:
CG13359 #1 = -1.37
CG13359 #2 = 0.059
CG3306 = 0.351
CG4661 = 0.153
